Anti-infective test results gathered from many reports (values: NIAID ChemDB through PubChem).

Shared fields: host cell toxicity; measure: CC50

Blank or dashed fields: not listed here.

[N-]=[N+]=N[C@H]1C[C@H](n2cc(C#CI)c(=O)[nH]c2=O)O[C@@H]1CO ; cell line: PBM ; result: 19.7 µM
OC[C@H]1O[C@@H](n2cnc3c(NC4CCCC4)cc(Cl)nc32)[C@H](O)[C@@H]1O ; cell line: Sheep chondrocytes G81092 ; result: 260 µM
C[C@H](Cn1cnc2c(N)ncnc21)OCP(=O)(O)O ; cell line: CHO (hOAT1) ; result: 21 µM
CC(/C=C/C=C(\C)CC(=O)O)=C\C=C\C=C(C)\C=C\C(C)=C(/C)C(=O)O ; cell line: BJ ; read by: ATP ; result: >26 µM
CCC(C)OC(=O)NC1N=C(c2ccccc2)c2ccccc2NC1=O ; cell line: HEP-2 ; result: 9.88 µM
OC[C@H]1O[C@@H](n2cnc3c(NC4CCCCCC4)cc(Cl)nc32)C[C@@H]1O ; cell line: Sheep chondrocytes G81092 ; result: 230 µM
COc1cc(O)c2c(c1)OC(c1ccc(O)cc1)CC2=O ; cell line: LLC-MK2 ; read by: MTT ; result: 25.97 µg/mL
Nc1ncnc2c1ncn2[C@@H]1O[C@H](OCP(=O)(O)O)C=C1F ; cell line: RPTECs (clinical isolate 2) ; read by: ATP ; result: >2000 µM
O=c1[nH]c(-c2ccc(O)c(O)c2O)nc2ccccc12 ; cell line: OM-10.1 ; read by: MTT ; result: 51 µM
Nc1ncnc2c1ncn2C[C@@H](CO)OCP(=O)(O)O ; cell line: TR-14 ; result: >50 µg/mL
CC(C)Cc1ccc(C(C)C(=O)NC2CCCC2)cc1 ; cell line: RAW 264.7 ; read by: resazurin / fluorescence ; result: 325 µg/mL
N#Cc1nc[nH]c1C(N)=O ; cell line: HeLa ; read by: trypan blue ; result: >500 µg/mL
O=C(NC1N=C(c2ccccc2)c2ccccc2NC1=O)c1ccccc1O ; cell line: HEP-2 ; result: 8.7 µM
CC1(C)CC[C@]2(C(=O)O)CC[C@]3(C)C(=CC[C@@H]4[C@@]5(C)C[C@@H](O)[C@H](O)[C@@](C)(CO)[C@@H]5CC[C@]43C)[C@@H]2C1 ; cell line: BJ ; read by: ATP ; result: >26 µM
O=c1[nH]c(-c2ccc3[nH]ncc3c2)nc2ccccc12 ; cell line: OM-10.1 ; read by: MTT ; result: 76.1 µM
CCCCCCCCCCCCCCCC(=O)OCC(CO)(CO)NC(=O)CNC(=O)CCCc1ccc(C(CCCl)CCCl)cc1 ; cell line: PC-3 ; result: 10.7 µM
CCCCc1ccc(Nc2c[nH]c(=O)[nH]c2=O)cc1 ; cell line: Vero cells ; read by: MTT ; result: >50 µg/mL
O=C(O[C@@H]1O[C@@H]2COC(=O)c3cc(O)c(O)c(O)c3-c3c(cc(O)c(O)c3O)C(=O)O[C@H]([C@H]1O)[C@@H]2O)c1cc(O)c(O)c(O)c1 ; cell line: MAGI ; read by: XTT ; result: 417 µM
CO[C@H]1/C=C/O[C@@]2(C)Oc3c(C)c(O)c4c(O)c(c(/C=N/N5CCN(C)CC5)c(O)c4c3C2=O)NC(=O)/C(C)=C\C=C\[C@H](C)[C@H](O)[C@@H](C)[C@@H](O)[C@@H](C)[C@H](OC(C)=O)[C@@H]1C ; cell line: RAW 264.7 ; result: 700 µg/mL
NC(=O)c1[nH]c2ccc(Cl)cc2c1S(=O)(=O)c1ccccc1 ; cell line: Macrophage ; result: >20 µM
CCOc1cc(OCC)n2sc(=NC(=O)c3ccc(Cl)nc3)nc2n1 ; cell line: MDCK ; read by: MTS ; result: >300 µM
O=c1oc2c(O)c(O)cc3c(=O)oc4c(O)c(O)cc1c4c23 ; cell line: BJ ; read by: ATP ; result: >26 µM
COc1cc(OC)n2sc(=NC(=O)COc3ccc(Cl)cc3Cl)nc2n1 ; cell line: MDCK ; read by: MTS ; result: >300 µM
CCCCCCCCCCCCCCCC(=O)OCC(CO)(COC(=O)CCCCCCCCCCCCCCC)NC(=O)CNC(=O)CC[C@H](NC(=O)c1ccc(N(C)Cc2cnc3nc(N)nc(N)c3n2)cc1)C(=O)O ; cell line: Jurkat cells ; result: 1.2 µM
CC/C=C\C[C@H]1C(=O)CC[C@@H]1CC(=O)O ; cell line: RAJI ; read by: ATP ; result: >26 µM
NC(=O)c1[nH]nc([C@@H]2O[C@H](CO)[C@@H](O)[C@H]2O)c1O ; cell line: HEF ; result: 32 µg/mL
CC(C)=CCC/C(C)=C/CC/C(C)=C/CC[C@@]1(C)CCc2cc(O)cc(C)c2O1 ; cell line: RAJI ; read by: ATP ; result: >26 µM
Nc1ccnc2c1ncn2[C@@H]1O[C@H](CO)C[C@H]1O ; cell line: MDBK ; result: 260 µM
CC[C@H](/C=C/[C@@H](C)[C@H]1CCC2C3CC=C4C[C@@H](O)CC[C@]4(C)[C@@]3(C)CC[C@@]21C)C(C)C ; cell line: BJ ; read by: ATP ; result: >26 µM
Cc1ccc(Nc2cn(C3C=CC(O)C3)c(=O)n(C3C=CC(O)C3)c2=O)cc1 ; cell line: A549 cells ; read by: MTT ; result: >50 µg/mL
CC/C=C\C[C@@H]1[C@@H](CC(=O)OC)CC[C@@H]1O ; cell line: BJ ; read by: ATP ; result: >26 µM
CSc1ccccc1C(=O)NC1N=C(c2ccccc2)c2ccccc2NC1=O ; cell line: HEP-2 ; result: 9.4 µM
OC[C@H]1O[C@@H](n2cnc3c(NC4CCCCCC4)nc(Cl)nc32)[C@H](O)[C@@H]1O ; cell line: MDBK ; result: 131 µM
CC(C)(C)NC(=O)NC(=S)NC(=O)C1C(C=C(Cl)Cl)C1(C)C ; cell line: MDCK ; read by: MTS ; result: >300 µM
COc1cc(-c2oc3cc(O)cc(O)c3c(=O)c2O)ccc1O ; cell line: HeLa ; read by: trypan blue ; result: 4 µg/mL
O=C(NC1N=C(c2ccccc2)c2ccccc2NC1=O)c1cccc2c1C(=O)c1ccccc1-2 ; cell line: HEP-2 ; result: 4.3 µM
COc1cc(Cl)nc(NC(=S)NC(=O)c2ccc(Cl)cc2F)n1 ; cell line: MDCK ; read by: MTS ; result: >300 µM
O=C(NC1N=C(c2ccccc2)c2ccccc2NC1=O)c1cc(F)cc2c1OCOC2 ; cell line: HEP-2 ; result: 4.6 µM
O=c1[nH]c(=O)n([C@H]2C[C@H](F)[C@@H](CO)O2)cc1/C(I)=C/I ; cell line: PBM ; result: 43 µM
Nc1nc(Cl)nc2c1ncn2[C@H]1CC[C@@H](CO)O1 ; cell line: Sheep chondrocytes G81092 ; read by: MTT ; result: 195 µM
CC(C)Cc1ccc(C(C)C(=O)NCc2ccccc2)cc1 ; cell line: RAW 264.7 ; read by: resazurin / fluorescence ; result: 100 µg/mL
COc1cc(C)nc(NC(=S)NC(=O)c2ccc(-c3ccc([N+](=O)[O-])cc3)o2)n1 ; cell line: MDCK ; read by: MTS ; result: >300 µM
CCOC(=O)/C=C/[C@H](C[C@@H]1CCNC1=O)NC(=O)[C@@H](CC(=O)[C@@H](NC(=O)c1cc(C)on1)C(C)C)Cc1ccc(F)cc1 ; cell line: BEAS-2B ; result: 320 µM
Nc1nc(Cl)nc2c1ncn2[C@@H]1O[C@H](CO)[C@@H](O)[C@H]1O ; cell line: Sheep chondrocytes G81092 ; result: <50 µM
Nc1nc2c(ncn2COC2COP(=O)(O)OC2)c(=O)[nH]1 ; cell line: HEF ; result: 62 µg/mL
Nc1ccn(C[C@@H](CO)OCP(=O)(O)O)c(=O)n1 ; cell line: RPTECs (clinical isolate 1) ; read by: ATP ; result: 291 µM
CO[C@@H]1C[C@H]2C(C)(C)CCC[C@]2(C)C2=C1C(O)=C(C(C)C)C(=O)C2=O ; cell line: HepG2.2.15 ; read by: sulforhodamine ; result: 60 µg/mL
COc1cc(Cl)nc(NC(=S)NC(=O)c2ccc(-c3ccccc3Cl)o2)n1 ; cell line: MDCK ; read by: MTS ; result: >300 µM
O=c1[nH]c(=O)n([C@H]2C[C@H](O)[C@@H](CO)O2)cc1/C=C/Br ; cell line: H4 ; result: 200 µg/mL
O=c1[nH]c(=O)n([C@H]2C[C@H](F)[C@@H](CO)O2)cc1/C(Br)=C/I ; cell line: PBM ; result: 26.8 µM
O=c1[nH]c(=O)n(C2C=CC(O)C2)cc1Nc1ccc(Oc2ccccc2)cc1 ; cell line: Huh7 cells ; read by: MTT ; result: >50 µg/mL
COc1cc(Cl)nc(NC(=O)NC(=O)c2c(F)cccc2F)n1 ; cell line: MDCK ; read by: MTS ; result: >300 µM
Nc1ccc(-c2nc3ccccc3c(=O)[nH]2)cc1 ; cell line: OM-10.1 ; read by: MTT ; result: 338.8 µM
OC[C@H]1O[C@@H](n2cnc3c(NC4CC4)ncnc32)C[C@@H]1O ; cell line: Sheep chondrocytes G81092 ; read by: MTT ; result: 312 µM
CCOc1cc(C)nc(NC(=S)NC(=O)c2ccc(-c3ccc([N+](=O)[O-])cc3)o2)n1 ; cell line: MDCK ; read by: MTS ; result: >300 µM
CO[C@@H]1C[C@H]2C(C)(C)CCC[C@]2(C)C2=C1C(O)=C(C(C)COC(C)=O)C(=O)C2=O ; cell line: HepG2.2.15 ; read by: sulforhodamine ; result: 30 µg/mL
OC[C@H]1O[C@@H](n2cnc3c(NC4CC4)nc(Cl)nc32)[C@H](O)[C@@H]1O ; cell line: Sheep chondrocytes G81092 ; read by: MTT ; result: 225 µM
Cc1cccc(Nc2c[nH]c(=O)[nH]c2=O)c1 ; cell line: Vero cells ; read by: MTT ; result: >50 µg/mL

A second listing of 4 rows from above:

smiles | cell line | read by | result
Nc1ccn(C[C@@H](CO)OCP(=O)(O)O)c(=O)n1 | RPTECs (clinical isolate 1) | ATP | 291 µM
[N-]=[N+]=N[C@H]1C[C@H](n2cc(C#CI)c(=O)[nH]c2=O)O[C@@H]1CO | PBM | - | 19.7 µM
COc1cc(Cl)nc(NC(=S)NC(=O)c2ccc(-c3ccccc3Cl)o2)n1 | MDCK | MTS | >300 µM
O=c1[nH]c(-c2ccc(O)c(O)c2O)nc2ccccc12 | OM-10.1 | MTT | 51 µM

Lines come from different laboratories, so protocols vary. CCn: concentration that lowers growth or viability of the cells by n%.